Results of unrelated studies side by side (data: NIAID ChemDB).

Shared fields: tests on isolated targets

Blank or dashed fields: not listed here. Inhibition is in % at the dose shown (toxicity tests: loss of growth or viability). ICn is the concentration giving n% inhibition. Neighbouring rows are from separate reports.

structure,protein,read by,read-out,strain or isolate,dose,organism,value
CCCCCCCCCCCCCCCCCC(=O)OC[C@@H](COP(=O)(O)OCCNCCO[C@@]1(C(=O)O)O[C@@H]([C@H](O)[C@H](O)CO)[C@H](NC(C)=O)[C@@H](O)[C@H]1F)OC(=O)CCCCCCCCCCCCCCCCC,Sialidase,,IC50,H3N2 A/AICHI/2/68,,Influenza A virus,31.3 µM
CC(C)/C=C1\N=C(CC(C)C)C(=O)N(O)C1=O,RNA polymerase II,,IC50,A/PR/8/34,,Influenza A virus,>50 µM
CC(=O)N[C@H]1[C@H](Oc2ccc([N+](=O)[O-])cc2)O[C@H](OS(=O)(=O)O)[C@@H](O)[C@@H]1O,Sialidase,fluorescence,IC50,H3N2 MEMPH/1/71,,Influenza A virus,2800 µM
O=C(NO)c1c[nH]ccc1=O,RNA-dependent RNA polymerase,,IC50,,,Influenza A virus,>6500 µM
CCN(C(=O)N1C[C@H](N)[C@](O)(C(=O)O)C1)C(C)C,Neuraminidase,,Ki,Memphis/3/89,,Influenza B virus,210 µM
CCN(CC)C(=O)[C@@H]1C=C(C(=O)O)CC[C@H]1NC(C)=O,Influenza virus sialidases,fluorescence,IC50,AICHI N2,,Influenza A virus,0.017 µM
CCCNC(=O)O[C@@H]([C@@H]1OC(C(=O)O)=C[C@H](N)[C@H]1NC(=O)O)[C@H](C)CO,Sialidase,,IC50,Victoria,,Influenza B virus,1.3 µM
CCN(CC)C(=O)[C@@H]1C=C(C(=O)O)OC[C@H]1NC(C)=O,Influenza virus sialidases,fluorescence,IC50,AICHI N2,,Influenza A virus,1.5 µM
O=C(O)C(=O)CC(=O)C1(Cc2ccc(Cl)cc2)CCCN(Cc2ccccc2)C1,Endonuclease,,IC50,,,Influenza B virus,1.8 µM
CCCO[C@@H]1O[C@H](OS(=O)(=O)O)[C@@H](O)[C@H](O)[C@H]1NC(C)=O,Sialidase,fluorescence,IC50,H3N2 MEMPH/1/71,,Influenza A virus,11 µM
CCC(CC)[C@H](NC(C)=O)[C@@H]1[C@H](O)[C@@H](C(=O)O)C[C@H]1N=C(N)N,Influenza virus neuraminidase,,IC50,Influenza A/Shandong/09/03 (H3N2),,Influenza A virus,0.4 µM
CC(=O)Nc1ccc(O[C@@H]2O[C@H](OS(=O)(=O)O)[C@@H](O)[C@H](O)[C@H]2NC(C)=O)cc1,Sialidase,fluorescence,IC50,H3N2 MEMPH/1/71,,Influenza A virus,33 µM
CCCCCCCCCCCCCCCCCC(=O)OC[C@@H](COP(=O)(O)OCCNCCO[C@@]1(C(=O)O)O[C@@H]([C@H](O)[C@H](O)CO)[C@H](NC(C)=O)[C@@H](O)[C@H]1F)OC(=O)CCCCCCCCCCCCCCCCC,Sialidase,,IC50,H1N1 A/PR/8/34,,Influenza A virus,62.5 µM
C[C@H](CO)[C@@H](OC(N)=O)[C@@H]1OC(C(=O)O)=C[C@H](N=C(N)N)[C@H]1NC(=O)O,Sialidase,,IC50,Victoria,,Influenza B virus,0.004 µM
O=C(NO)c1cc(=O)cc[nH]1,RNA-dependent RNA polymerase,,IC50,,,Influenza A virus,65 µM
C[C@H](CO)[C@@H](OC(=O)N(C1CCCCC1)C1CCCCC1)[C@@H]1OC(C(=O)O)=C[C@H](N)[C@H]1NC(=O)O,Sialidase,,IC50,H3N2 AICHI,,Influenza A virus,100 µM
CCCCCCCCCCCCC/C=C/[C@@H](O)[C@H](CO[C@@H]1O[C@H](CO)[C@H](O)[C@H](OS(=O)(=O)O)[C@H]1O)NC(=O)CCCCCCCCCCCCCCCCCCCCCCC,Sialidase,,inhibition,H3N2 A/TOKYO/6/73,200 µM,Influenza A virus,99.1%
C[C@H](CO)[C@@H](OC(=O)N(CCCN)CCCCN)[C@@H]1OC(C(=O)O)=C[C@H](N=C(N)N)[C@H]1NC(=O)O,Sialidase,,IC50,H3N2 AICHI,,Influenza A virus,0.72 µM
O=C(NO)c1nc2ccccc2cc1O,RNA-dependent RNA polymerase,,IC50,,,Influenza A virus,40 µM
C[C@H](CO)[C@@H](OC(=O)NCCCCNCCN)[C@@H]1OC(C(=O)O)=C[C@H](N=C(N)N)[C@H]1NC(=O)O,Sialidase,,IC50,H3N2 AICHI,,Influenza A virus,0.077 µM
O=C(O)c1ncccc1O,RNA-dependent RNA polymerase,,IC50,,,Influenza A virus,>7500 µM
CCCCCCCNC(=O)O[C@@H]([C@@H]1OC(C(=O)O)=C[C@H](N=C(N)N)[C@H]1NC(=O)O)[C@H](C)CO,Sialidase,,IC50,H3N2 AICHI,,Influenza A virus,0.0037 µM
N#CC[C@H](O)[C@H](O)[C@@H]1OC(C(=O)O)=C[C@H](O)[C@H]1NC(=O)O,Neuraminidase,,Ki,,,Influenza A virus,3 µM

2 of the rows above, restated:

structure,protein,read by,read-out,strain or isolate,dose,organism,value
CC(C)/C=C1\N=C(CC(C)C)C(=O)N(O)C1=O,RNA polymerase II,,IC50,A/PR/8/34,,Influenza A virus,>50 µM
CCCCCCCCCCCCCCCCCC(=O)OC[C@@H](COP(=O)(O)OCCNCCO[C@@]1(C(=O)O)O[C@@H]([C@H](O)[C@H](O)CO)[C@H](NC(C)=O)[C@@H](O)[C@H]1F)OC(=O)CCCCCCCCCCCCCCCCC,Sialidase,,IC50,H1N1 A/PR/8/34,,Influenza A virus,62.5 µM